A mixed list of measured activities; the numbers were collected in NIAID ChemDB.

Common to all: growth or infection tests; agent: Herpes simplex virus 1; cells: HFF; endpoint: EC50

Blank or dashed fields: not listed here.

compound | strain or isolate | read by | result
CC(C)[C@H](NC(=O)CN)C(=O)OCC(COC(=O)[C@@H](NC(=O)CN)C(C)C)OCn1cnc2c(=O)[nH]c(N)nc21 | - | plaque count | 0.38 µM
O=c1[nH]c(=O)n(COCCO)nc1Cc1ccccc1 | - | cytopathic effect | >100 µM
CC(C)Nc1nc2cc(Cl)c(Cl)cc2n1[C@H]1O[C@@H](CO)[C@H](O)[C@@H]1O | - | plaque count | >53 µM
C=Cc1cn([C@H]2C[C@H](O)[C@@H](CO)O2)c(=O)[nH]c1=O | - | cytopathic effect | 0.04 µM
Nc1nc(Cl)c2ncn([C@@H](CCO)SCCO)c2n1 | - | cytopathic effect | >200 µM
CCCCCCCCCCCCCCO[C@H]1O[C@H](COP(=O)(O)C(=O)O)[C@@H](O)[C@H](O)[C@H]1O | R39 | - | 45 µM
Nc1ccn(C[C@@H](CO)OCP(=O)(O)O)c(=O)n1 | HL-3 | plaque count | 1.7 µg/mL
Nc1ncnc2c1c(I)cn2COC(CO)CO | - | plaque count | >100 µM
O=C(NCc1ccc(Cl)cc1)c1cn2c3c(cc(CN4CCOCC4)cc3c1=O)OC(c1cccnc1)C2 | E-115 | plaque count | >10.5 µM
CC(C)[C@H](N)C(=O)NCC(=O)OCC(COC(=O)CNC(=O)[C@@H](N)C(C)C)OCn1cnc2c(=O)[nH]c(N)nc21 | - | plaque count | 0.25 µM
O=C(NCCc1ccccc1)C1=Cc2ccncc2CC1 | McKrae | plaque count | 54.4 µM
C=Cc1cn([C@H]2C[C@H](OC(=O)C3=CN(C)C=CC3)[C@@H](CO)O2)c(=O)[nH]c1=O | - | cytopathic effect | 0.13 µM
CCCCCCCCCCCCCCCCCCCCO[C@@H]1O[C@H](COP(=O)(O)C(=O)O)[C@H](O)[C@H](O)[C@H]1O | R39 | - | 15 µM
Nc1ncnc2c1c(Cl)cn2COC(CO)CO | - | virus yield | <22 µM
OC[C@H]1O[C@@H](n2c(Br)nc3cc(Cl)c(Cl)cc32)[C@H](O)[C@@H]1O | - | plaque count | >251 µM
CCCC(=O)OCC(COC(=O)CCC)OCn1cnc2c(=O)[nH]c(N)nc21 | - | plaque count | 2.4 µg/mL
CCCCCCCCCCCCO[C@H]1O[C@H](COP(=O)(O)C(=O)O)[C@@H](O)[C@H](O)[C@H]1O | R39 | - | 144 µM
CC(=O)NC(CCc1ccc(Cl)c(Cl)c1)c1cccc(O)c(=O)c1 | Clinical isolate | plaque count | 2.81 µM
COc1ccc(Cc2nn(COC(CO)CO)c(=O)[nH]c2=O)cc1 | - | cytopathic effect | >100 µM
CC(C)Oc1ccccc1CNC(=O)c1ccc2cnccc2n1 | McKrae | plaque count | 1.1 µM
COc1ccc(Cc2nn(COCCO)c(=O)[nH]c2=O)cc1 | - | cytopathic effect | >100 µM
Nc1nc2c(ncn2COCCO)c(=O)[nH]1 | - | plaque count | 0.14 µg/mL
COC(=O)[C@H](C)NP(=O)(OC[C@H]1C/C1=C/n1cnc2c(=O)[nH]c(N)nc21)Oc1ccccc1 | - | cytopathic effect | 20.2 µM
COC(=O)[C@H](C)NP(=O)(OCC1C/C1=C/n1cnc2c(N)ncnc21)Oc1ccccc1 | - | cytopathic effect | <0.07 µM
OC[C@@H]1O[C@@H](n2c(Cl)nc3cc(Cl)c(Cl)cc32)[C@H](O)[C@H]1O | - | ELISA | >100 µM
CC[C@@]1(Br)C(=O)NC(=O)N([C@H]2C[C@H](O)[C@@H](CO)O2)[C@H]1OC | E-377 | cytopathic effect | 0.67 µM
Cc1cn(C(CCO)SCCO)c(=O)[nH]c1=O | - | cytopathic effect | >200 µM
Cn1cc(C(=O)NCc2ccc(Cl)cc2)c(=O)c2cc(CN3CCOCC3)ccc21 | F | plaque count | 2.8 µM
Nc1nc2c(ncn2COCCO)c(=O)[nH]1 | H30716 (acyclovir-susceptible) | cytopathic effect | 0.5 µg/mL
Nc1ncnc2c1ncn2/C=C1/CC1(CO)CO | - | cytopathic effect | >380 µM
Cc1cc(C2CCCCC2)n(O)c(=O)c1 | Clinical isolate | plaque count | 0.14 µM
COC(=O)[C@H](C)NP(=O)(OC[C@H]1C/C1=C/n1cnc2c(OC)nc(N)nc21)Oc1ccccc1 | - | plaque count | 1.1 µM
COC(=O)C[C@@H](SCCO)n1cnc2c(Cl)nc(N)nc21 | - | cytopathic effect | >200 µM
COC(=O)[C@H](C)NP(=O)(OCC1C/C1=C/n1cnc2c(NC3CC3)nc(N)nc21)Oc1ccccc1 | - | cytopathic effect | 1.3 µM
CCCCCCCCCCCCCCCCCCO[C@H]1O[C@H](COP(=O)(O)C(=O)O)[C@@H](O)[C@H](O)[C@H]1O | R39 | - | 20 µM
NC(=S)c1cn(COC(CO)CO)c2ncnc(N)c12 | - | plaque count | 16 µM
Cc1cn([C@@]23C[C@H](O)[C@@H](CO)[C@@H]2C3)c(=O)[nH]c1=O | - | plaque count | >20 µg/mL
CCCCCCCC/C=C\CCCCCCCCO[C@H]1O[C@H](COP(=O)(O)C(=O)O)[C@@H](O)[C@H](O)[C@H]1O | R39 | - | 36 µM
CCCC(=O)OCC(CO)OCn1cnc2c(=O)[nH]c(N)nc21 | - | plaque count | 0.5 µg/mL
CC(C)=CCc1ccc(O)c(=O)cc1C(C)C | Clinical isolate | plaque count | 0.74 µM
COC(=O)[C@H](C)NP(=O)(OC[C@H]1C/C1=C/n1cnc2c(N)nc(N)nc21)Oc1ccccc1 | - | plaque count | 5.5 µM
Cc1cn([C@@H]2O[C@H](CO)[C@H]2CO)c(=O)[nH]c1=O | SC16 | plaque count | 0.03 µg/mL
Nc1nc(NC2CC2)c2ncn(C=C3CC3CO)c2n1 | - | cytopathic effect | 73.4 µM
Nc1ncnc2c1ncn2[C@@H]1O[C@H](CO)[C@@H](O)[C@@H]1O | P | plaque count | 44 µg/mL
OC[C@@H]1O[C@@H](n2c(Br)nc3cc(Cl)c(Cl)cc32)[C@H](O)[C@H]1O | - | ELISA | >100 µM
O=c1[nH]c(=O)n([C@H]2C[C@H](O)[C@@H](CO)O2)cc1I | - | cytopathic effect | 0.36 µM
Cc1ccc(Cc2nn(COC(CO)CO)c(=O)[nH]c2=O)cc1 | - | cytopathic effect | >100 µM
Nc1nc2c(ncn2/C=C2/CC2(CO)CO)c(=O)[nH]1 | E-377 | plaque count | >380 µM
CC(C)c1ccc(O)c(O)c(=O)c1 | Clinical isolate | plaque count | 0.97 µM
CCCCC(C)(C)[C@H](O)/C=C/[C@H]1C=CC(=O)[C@@H]1CCCCCCC(=O)O | KOS | hybridisation | 7.3 µg/mL
COc1cc(OC)c(NC(=S)Nc2ccc(NC=O)cc2Cl)cc1Cl | E-377 | ELISA | 9.3 µg/mL
O=c1[nH]c(=O)n(COC(CO)CO)nc1Cc1ccccc1 | - | cytopathic effect | >100 µM
CC[C@]1(Br)C(=O)NC(=O)N([C@H]2C[C@H](O)[C@@H](CO)O2)[C@@H]1OC | E-377 | cytopathic effect | 0.29 µM

Repeating the first 3 entries:

compound	strain or isolate	read by	result
CC(C)[C@H](NC(=O)CN)C(=O)OCC(COC(=O)[C@@H](NC(=O)CN)C(C)C)OCn1cnc2c(=O)[nH]c(N)nc21	-	plaque count	0.38 µM
O=c1[nH]c(=O)n(COCCO)nc1Cc1ccccc1	-	cytopathic effect	>100 µM
CC(C)Nc1nc2cc(Cl)c(Cl)cc2n1[C@H]1O[C@@H](CO)[C@H](O)[C@@H]1O	-	plaque count	>53 µM

ECn is the concentration giving n% inhibition of infection, replication or growth. Neighbouring rows are from separate reports.